The values below come from patent US12252423B2, “Biodegradation of fluorochemicals” (The Trustees of Princeton University, priority 2018, dated 2025).

The subject of this series is A6 enrichment culture. Briefly: Feammox incubation of various PFAS with A6 enrichment culture, day 60. Set-up: species or system Acidimicrobiaceae sp. A6. Particulars: initial conc. 100 mg/l.

In the case of `O=S(=O)(O)CCC(F)(F)C(F)(F)C(F)(F)C(F)(F)C(F)(F)C(F)(F)C(F)(F)C(F)(F)F` [8:2 FTS, 8:2 Fluorotelomer sulfonate], the Acetate produced turned out to be 5.1 mg/L, the Decrease in concentration came out at 23.5 mg/L and the “F^− produced” value turned out to be 6.9 mg/L. The “% defluorination of initial compound degraded” value (ratio of F− produced to F− expected for complete defluorination) was 48%.
